Pooled drug test results. Numbers come from NIAID ChemDB, via PubChem.

Common to all: growth or infection tests; species: Toxoplasma gondii; cell line: HFF; read-out: EC50

Blank or dashed fields: not listed here. ECn: concentration that inhibits the pathogen or its effect by n%. Conditions beyond the fields shown may differ between rows.

| SMILES | strain | read by | value |
|---|---|---|---|
| CC[C@@]1(C)NC(=O)[C@H](CCCCCC(=O)[C@H](C)OC(C)=O)NC(=O)[C@H]2C[C@H](C)CN2C(=O)C(Cc2ccccc2)NC1=O | RH | - | 0.0102 µM |
| OCCOCCN1CCN(C2=Nc3ccccc3Sc3ccccc32)CC1 | - | - | 18.6 µg/mL |
| CCOC(=O)c1cc2ccccc2nc1C | - | - | 100 µM |
| Cc1nc2n(c(=O)c1CCN1CCC(c3noc4cc(F)ccc34)CC1)CC(O)CC2 | - | - | 20.1 µg/mL |
| CC1=C(C(=O)NCc2ccc(F)cc2)OC2OC3(C)CC[C@H]4[C@H](C)CC[C@@H]1[C@@]24OO3 | 2F | β-galactosidase | 0.65 µM |
| O=Nc1c(-c2c(O)[nH]c3ccc([N+](=O)[O-])cc23)[nH]c2ccccc12 | ATCC 50839 | - | 0.4 µg/mL |
| CC1=C(C=O)O[C@@H]2O[C@]3(C)CC[C@H]4[C@H](C)CC[C@@H]1[C@@]24OO3 | - | β-galactosidase | 1 µM |
| C[C@H]1[C@@H](CCCC(=O)c2ccccc2Br)O[C@@H]2OC3(C)CC[C@H]4[C@H](C)CC[C@@H]1[C@@]24OO3 | - | - | 0.6 µg/mL |
| O=C1C(c2c(O)[nH]c3ccc(S(=O)(=O)O)cc23)=Nc2ccccc21 | ATCC 50839 | - | >320 µg/mL |
| CC1=C(C(=O)NCc2cc(F)cc(F)c2)OC2OC3(C)CC[C@H]4[C@H](C)CC[C@@H]1[C@@]24OO3 | 2F | β-galactosidase | 0.47 µM |
| Cc1ccc2[nH]c(O)c(C3=Nc4ccccc4C3=O)c2c1 | ATCC 50839 | - | >320 µg/mL |
| CC(=C\Cc1ccccc1)/C=C(\C)C[C@H](C)C[C@]1(C)C[C@@]2(C)OC(=O)C[C@H]2OO1 | RH | - | 0.064 µM |
| O=Nc1c(-c2c(O)[nH]c3cc(Cl)ccc23)[nH]c2ccccc12 | ATCC 50839 | - | 0.06 µg/mL |
| CCC(=O)CCCCC[C@@H]1NC(=O)[C@H]2C[C@H](C)CN2C(=O)C(Cc2ccccc2)NC(=O)[C@@](C)(CC)NC1=O | RH | - | 0.0853 µM |
| CC[C@H]1OC(=O)[C@H](C)C(=O)[C@H](C)[C@@H](O[C@@H]2O[C@H](C)C[C@H](N(C)C)[C@H]2O)[C@](C)(OC)C[C@@H](C)C(=O)[C@H](C)[C@H]2N(CCCCn3cnc(-c4cccnc4)c3)C(=O)O[C@]12C | RH | - | ≤0.05 µg/mL |
| CCOC(=O)C1C(c2ccc(OC)cc2)CC(c2ccccc2)=CC12NCCN2 | RH | - | 0.0097 µM |
| O=C1c2cc(F)ccc2-n2c1nc1ccccc1c2=O | ATCC 50839 | - | 0.001 µg/mL |
| CC[C@@]1(C)NC(=O)[C@H](CCCCCC(=O)[C@H](C)OC(=S)Oc2ccccc2)NC(=O)[C@H]2C[C@H](C)CN2C(=O)C(Cc2ccccc2)NC1=O | RH | - | 0.0113 µM |
| O=C1C(c2c(O)[nH]c3ccccc23)=Nc2ccccc21 | ATCC 50839 | - | >320 µg/mL |
| CC1=C(C(=O)NCc2ccc(C(F)(F)F)cc2)OC2OC3(C)CC[C@H]4[C@H](C)CC[C@@H]1[C@@]24OO3 | 2F | β-galactosidase | 0.51 µM |
| O[C@]12C=C(c3nccc4c3[nH]c3ccccc34)[C@@H]3CCN(CCCC/C=C/CC1)C[C@@]31C[C@@H]3/C=C\CCCCN3C12 | - | - | <0.1 µM |
| C[C@H]1[C@@H](CCCO)O[C@@H]2OC3(C)CC[C@H]4[C@H](C)CC[C@@H]1[C@@]24OO3 | - | - | 0.5 µg/mL |
| CCOC(=O)C1C(c2ccccc2)CC(c2ccccc2)=CC12NCCN2 | RH | - | 0.0097 µM |
| O=C1C(c2c(O)[nH]c3ccc([N+](=O)[O-])cc23)=Nc2ccccc21 | ATCC 50839 | - | >320 µg/mL |
| C[C@@H]1CC[C@H]2[C@@H](C)C(=O)O[C@@H]3OC4(C)CC[C@@H]1[C@]32OO4 | - | - | 2.3 µg/mL |

A second listing of 2 rows from above:

SMILES | strain | read by | value
O=Nc1c(-c2c(O)[nH]c3cc(Cl)ccc23)[nH]c2ccccc12 | ATCC 50839 | - | 0.06 µg/mL
CCOC(=O)C1C(c2ccccc2)CC(c2ccccc2)=CC12NCCN2 | RH | - | 0.0097 µM